Measured values from several laboratories, pooled; numbers as filed in NIAID ChemDB.

Common to all: growth or infection tests; species: Mycobacterium tuberculosis

Rows are shuffled and stem from different studies.

compound,measure,cells,read by,strain,tested at,changes,value
O=C(CNC(=O)OCc1ccccc1)NC(CO)C(=O)OCc1ccccc1,MIC,-,BACTEC,H37Rv,-,-,≥12.8 µg/mL
Cc1ccc(C(=O)CCC(=O)NC[C@H]2CN(c3ccc(-n4cncn4)c(F)c3)C(=O)O2)c(C)c1,MIC,-,-,10 clinical isolates sensitive,-,-,0.5–1 µg/mL
O=C1NC(=Nc2ccccc2Cl)N/C1=C\c1c(Cl)cccc1Cl,inhibition,-,-,H37Rv,12.5 µg/mL,-,0%
NC1CCCCCCC1=O,inhibition,-,BACTEC,H37Rv,12.5 µg/mL,-,11%
NNC(=O)c1ccncc1,MIC,-,-,Isolate R0,-,-,0.031 µg/mL
COc1cc(/C=C2\N=C(c3ccccc3)OC2=O)cc(OC)c1,inhibition,-,BACTEC,H37Rv,12.5 µg/mL,-,94%
O=C1NC(Nc2ccc(Cl)cc2)=N/C1=C\c1c(Cl)cccc1Cl,MIC,-,-,H37Rv,-,-,>12.5 µg/mL
CC1(C)CC2=C(Sc3ccccc3N2)C(=O)C1C(=O)C(=O)Nc1cc(Cl)ccc1Cl,inhibition,-,BACTEC,H37Rv,12.5 µg/mL,-,13%
Cc1c(CN2CCOCC2)c(CN2CCOCC2)c(-c2ccc(Cl)cc2)n1C1CCCCC1,MIC,-,-,H37Rv,-,-,<12.5 µg/mL
O=C(N/N=C/c1ccccc1O)c1ccc(F)cc1,EC50,-,-,H37Rv,-,-,>6.25 µg/mL
Cc1ccc(C)n1C1CCCCC1,MIC,-,-,103471,-,-,4 µg/mL
C=CCn1c(-c2cc3cc(Br)ccc3oc2=O)cs/c1=N\N=C\c1ccc(O)c(OCC)c1,EC50,-,-,H37Rv,-,-,<12.5 µg/mL
Cc1ccc(C)[nH]1,MIC,-,-,103471,-,-,8 µg/mL
CCCCCc1cc(OC)c2ccccc2n1,MIC,-,-,MT7,-,-,21 µg/mL
COc1ccc([C@H]2OC[C@H]3[C@@H]2CO[C@@H]3c2ccc(OC)c(OC)c2)cc1OC,inhibition,-,BACTEC,H37Rv,12.5 µg/mL,-,0%
O=C(N/N=C/c1ccc(Br)cc1)c1ccc(F)cc1,EC50,-,-,H37Rv,-,-,>6.25 µg/mL
CCOC(=O)c1cc(-c2cccc([N+](=O)[O-])c2)n(CCC(=O)NN)c1C,EC50,-,BACTEC,H37Rv,-,-,>6.25 µg/mL
CC1=C(C#N)C2(N)OC1(C)C1C(=O)C=CC(=O)C12,inhibition,-,BACTEC,H37Rv,12.5 µg/mL,-,-6%
O=C(O)C(=O)O.OC(CNCCc1ccccc1)CN1c2ccccc2Sc2ccccc21,MIC,-,resazurin,XDR-926,-,-,32 µg/mL
COC1(CO)C(=O)N(C)CC(=O)N1C,MIC,VERO,-,H37Rv,-,-,6.25 µg/mL
CO[C@H]1/C=C/O[C@@]2(C)Oc3c(C)c(O)c4c(O)c(c(/C=N/N5CCN(C)CC5)c(O)c4c3C2=O)NC(=O)/C(C)=C\C=C\[C@H](C)[C@H](O)[C@@H](C)[C@@H](O)[C@@H](C)[C@H](OC(C)=O)[C@@H]1C,MIC,-,-,6S,-,-,1 µg/mL
COC(=O)c1cc(-c2ccc([N+](=O)[O-])cc2)c2c(=O)n(-c3ccccc3)[nH]c2n1,inhibition,-,BACTEC,H37Rv,12.5 µg/mL,-,0%
CCOC(=O)c1cc(-c2ccc(C)cc2)n(CC(=O)NN)c1C,inhibition,-,BACTEC,H37Rv,6.25 µg/mL,-,16%
Cc1c(CN2CCN(C)CC2)cc(-c2ccc(Cl)cc2)n1C1CCCCC1,EC50,-,-,H37Rv,-,-,<12.5 µg/mL
NC1CC(c2ccccc2)OC1=O,inhibition,-,BACTEC,H37Rv,12.5 µg/mL,-,-3%
CN1c2ccccc2CCC1CCc1ccc2c(c1)OCO2,MIC,-,-,MT8,-,-,169 µg/mL
Cc1c[nH]c(C)c1C(=O)NN,EC50,-,BACTEC,H37Rv,-,-,>6.25 µg/mL
Cc1cccnc1NN,inhibition,-,BACTEC,H37Rv,12.5 µg/mL,-,8%
COc1ccc2c(N/N=C/c3c(OC)ccc4ccccc34)ccnc2c1,MIC,VERO,-,H37Rv,-,-,6.25 µg/mL
Cc1ccc(NC(=S)N=Nc2c(O)n(CN3CCOCC3)c3ccc(OC(F)(F)F)cc23)cc1,EC50,-,broth dilution / resazurin,H37Rv,-,-,1.373 µg/mL
CCN(CC)c1ccc(/C=N/Nc2cc(C)nc3cc(OC)ccc23)cc1,MIC,VERO,-,H37Rv,-,-,12.5 µg/mL
C=CCn1c(-c2cc3cc(Br)ccc3oc2=O)cs/c1=N\N=C\c1ccc(Cl)cc1,EC50,-,-,H37Rv,-,-,<12.5 µg/mL
Oc1[nH]c2ccc(OC(F)(F)F)cc2c1N=NC(=S)NCc1ccccc1,EC50,-,broth dilution / resazurin,H37Rv,-,-,1.11 µg/mL
CCn1cc(C(=O)O)c(=O)c2ccc(C)nc21,MIC90,-,-,H37Rv,-,gyrA mutation D94G,>50 µM
O=C(NNC(=S)Nc1cccc(C(F)(F)F)c1)c1ccncc1,MIC,VERO,-,H37Rv,-,-,6.25 µg/mL
Cc1c(CN2CCOCC2)cc(-c2ccc(Cl)cc2)n1C1CCCCC1,MIC,-,-,H37Rv,-,-,<12.5 µg/mL
COc1cc2c3c(c1OC)-c1cc4c(cc1CC3N(C=O)CC2)OCO4,MIC,-,resazurin,SIN452,-,-,>50 µg/mL
NNC(=O)c1ccncc1,MIC,-,-,PR146,-,-,10 µg/mL
C[C@H]1CC[C@@]2(NC1)O[C@H]1C[C@H]3[C@@H]4CC=C5C[C@@H](O[C@@H]6O[C@H](CO)[C@H](O)[C@H](O[C@@H]7O[C@H](CO)[C@@H](O)[C@H](O)[C@H]7O)[C@H]6O[C@@H]6O[C@@H](C)[C@H](O)[C@@H](O)[C@H]6O)CC[C@]5(C)[C@H]4CC[C@]3(C)[C@H]1[C@@H]2C,MIC,-,BACTEC,H37Rv,-,-,≥12.8 µg/mL
C=C(C)/C=C/[C@]12C[C@H](C)[C@H]3CC[C@](C)(NC=O)[C@@H](CC[C@H]1C)[C@@H]32,MIC,-,-,H37Rv,-,-,32 µg/mL
CO[C@H]1/C=C/O[C@@]2(C)Oc3c(C)c(O)c4c(O)c(c(/C=N/N5CCN(C)CC5)c(O)c4c3C2=O)NC(=O)/C(C)=C\C=C\[C@H](C)[C@H](O)[C@@H](C)[C@@H](O)[C@@H](C)[C@H](OC(C)=O)[C@@H]1C,MIC,-,-,KZN494,-,-,>100 µM
CCOC(=O)c1cn(C)c2c(cc([N+](=O)[O-])c3cccnc32)c1=O,MIC90,-,-,BCG,-,gyrA mutation D94G,2.35 µM
CCOC(=O)c1c(C)c(-c2ccccc2)n(CCC(=O)NN)c1C,inhibition,-,BACTEC,H37Rv,6.25 µg/mL,-,0%
O=C1NC(=Nc2ccccc2Cl)N/C1=C\c1ccccc1Cl,inhibition,-,-,H37Rv,12.5 µg/mL,-,79%
O=[N+]([O-])c1ccc(NC(=S)N=Nc2c(O)n(CN3CCOCC3)c3ccc(OC(F)(F)F)cc23)cc1,EC50,-,broth dilution / resazurin,H37Rv,-,-,6.683 µg/mL
CCN(CC)CCN1C(=O)CN=C(c2ccccn2)c2cc(Cl)ccc21,inhibition,-,BACTEC,H37Rv,12.5 µg/mL,-,5%
CCOC(=O)c1cc(-c2ccc(Cl)cc2)n(CC(=O)NN)c1C,inhibition,-,BACTEC,H37Rv,6.25 µg/mL,-,10%
Cn1c(O)c(N=NC(=S)Nc2ccccc2)c2cc(OC(F)(F)F)ccc21,EC50,-,broth dilution / resazurin,H37Rv,-,-,<0.2 µg/mL
CCOC(=O)c1cc(-c2ccc(-c3ccccc3)cc2)n(CCC(=O)NN)c1C,inhibition,-,BACTEC,H37Rv,6.25 µg/mL,-,0%
C=C1CCC2C(C)(CO)C(O)CCC2(C)C1CCC1=CCOC1=O,MIC bound,-,BACTEC,H37Rv,-,-,>12.5 µg/mL
COc1cccc2c1cc1c3c(cc4c(c32)OCO4)C(=O)N1,MIC,-,resazurin,MMDO,-,-,25 µg/mL
Nc1ccc(C(=O)N/N=C/c2ccc([N+](=O)[O-])o2)cc1,EC50,-,-,H37Rv,-,-,<12.5 µg/mL
CC(=O)Nc1ccc(C(=O)CCC(=O)NC[C@H]2CN(c3ccc(-n4cncn4)c(F)c3)C(=O)O2)cc1,MIC,-,-,10 clinical isolates resistant,-,-,2–4 µg/mL
c1cc2c(s1)CCOC21CCN(Cc2ccc3c(c2)OCCO3)CC1,fold resistance,-,fluorescence,H37Rv,-,MmpL3: Ile292Ser,≥33.3
O=C(CN1CCCCC1)NC(=O)N/N=C/c1ccco1,MIC bound,-,BACTEC,H37Rv,-,-,>12.5 µg/mL
CCCCOc1ccc2nc(C)cc(NN)c2c1,inhibition,VERO,-,H37Rv,12.5 µg/mL,-,99%
CC(=O)/C(N=Nc1ccc(C(=O)N/N=C/c2ccncc2)cc1)=C(\C)O,MIC,-,-,H37Rv,-,-,>12.5 µg/mL
Cc1ccc2[nH]c(O)c(N=NC(=S)Nc3ccccc3)c2c1,EC90,-,broth dilution / resazurin,H37Rv,-,-,1.433 µg/mL
Cc1cc(C)c(C(=O)NN)[nH]1,EC50,-,BACTEC,H37Rv,-,-,>6.25 µg/mL
COc1cc(/C=N/NC(=O)c2ccc(N)cc2)ccc1O,EC50,-,-,H37Rv,-,-,>12.5 µg/mL
CCOP1(=S)NNP(=S)(OCC)NN1,inhibition,-,BACTEC,H37Rv,128 µg/mL,-,100%
CC[C@H]1OC(=O)[C@H](C)[C@@H](O[C@H]2C[C@@](C)(OC)[C@@H](O)[C@H](C)O2)[C@H](C)[C@@H](O[C@@H]2O[C@H](C)C[C@H](N(C)C)[C@H]2O)[C@](C)(OC)C[C@@H](C)C(=O)[C@H](C)[C@@H](O)[C@]1(C)O,MIC,-,-,Isolate 20,-,-,<2 µg/mL
CC(C)Cc1ccc(C(=O)CCC(=O)NC[C@H]2CN(c3ccc(N4CCCCC4)c(F)c3)C(=O)O2)cc1,MIC,-,-,10 clinical isolates sensitive,-,-,>16 µg/mL
O=C(O)COc1ccc(C(=O)/C(SS/C(C(=O)c2ccc(OCC(=O)O)c(Cl)c2Cl)=C2\C=C(c3ccccc3Cl)SS2)=C2/C=C(c3ccccc3Cl)SS2)c(Cl)c1Cl,inhibition,-,BACTEC,H37Rv,12.5 µg/mL,-,9%
CCN(CC)c1ccc(/C=N/Nc2cc(C)nc3cc(Cl)ccc23)cc1,inhibition,VERO,-,H37Rv,12.5 µg/mL,-,100%
C=CCn1c(-c2cc3cc(Br)ccc3oc2=O)cs/c1=N\N=C\c1cc(Br)ccc1O,MIC,-,-,H37Rv,-,-,>12.5 µg/mL
CC(C)(C)c1ccc(C(=O)CCC(=O)NC[C@H]2CN(c3ccc(-n4cncn4)c(F)c3)C(=O)O2)cc1,MIC,-,-,10 clinical isolates sensitive,-,-,2–4 µg/mL
CC(=O)NC[C@H]1CN(c2ccc(N3CCN(c4ccc([N+](=O)[O-])s4)CC3)c(F)c2)C(=O)O1,MIC,-,-,PC 4782,-,-,0.125 µg/mL
NCCCN1c2ccccc2Sc2ccccc21,MIC,-,resazurin,XDR-83,-,-,64 µg/mL
Cc1ccc2c(c1)c(N=NC(=S)Nc1cccc(Br)c1)c(O)n2C,EC50,-,broth dilution / resazurin,H37Rv,-,-,5.495 µg/mL
CO[C@H]1O[C@@H]2COC(c3ccccc3)O[C@H]2[C@@H]2OC(c3ccccc3)O[C@H]12,MIC bound,-,BACTEC,H37Rv,-,-,>12.5 µg/mL
CCn1c(-c2cc3ccccc3oc2=O)cs/c1=N\N=C\c1ccc(Cl)cc1,EC50,-,-,H37Rv,-,-,>12.5 µg/mL
CCOC(=O)c1cc(-c2ccccc2)n(CC(=O)N/N=C/c2ccc[nH]2)c1C,inhibition,-,BACTEC,H37Rv,6.25 µg/mL,-,2%
CN(C)c1ccc(/C=N/NC(=O)c2ccc(F)cc2)cc1,inhibition,-,-,H37Rv,6.25 µg/mL,-,5%
NCC[C@H](O)C(=O)N[C@@H]1C[C@H](N)[C@@H](O[C@H]2O[C@H](CN)[C@@H](O)[C@H](O)[C@H]2O)[C@H](O)[C@H]1O[C@H]1O[C@H](CO)[C@@H](O)[C@H](N)[C@H]1O,MIC,-,-,5R,-,-,2.5 µg/mL
O=C1NC(Nc2ccccc2)=N/C1=C\c1ccc(Cl)cc1Cl,MIC,-,-,H37Rv,-,-,>6.25 µg/mL
O=C(N/N=C/c1cccs1)c1ccccc1,inhibition,-,-,H37Rv,6.25 µg/mL,-,9%
CN(C)P1(=O)N(c2ccc(Cl)cc2)P(=O)(N(C)C)N1c1ccc(Cl)cc1,inhibition,-,BACTEC,H37Rv,12.5 µg/mL,-,31%
Nc1ccc(C(=O)N/N=C/c2ccccc2F)cc1,MIC,-,-,H37Rv,-,-,>12.5 µg/mL
Clc1ccc(/C(=C/c2ccccc2)Cn2ccnc2)cc1,MIC bound,-,resazurin,H37Rv,-,-,<6.25 µg/mL
CO[C@H]1/C=C/O[C@@]2(C)Oc3c(C)c(O)c4c(O)c(c5c(c4c3C2=O)NC2(CCN(CC(C)C)CC2)N=5)=NC(=O)/C(C)=C\C=C\[C@H](C)[C@H](O)[C@@H](C)[C@@H](O)[C@@H](C)[C@H](OC(C)=O)[C@@H]1C,MIC,-,-,Strain 163 (D516Y),-,-,0.25 µg/mL

A second listing of 6 rows from above:

NC1CC(c2ccccc2)OC1=O ; measure: inhibition ; read by: BACTEC ; strain: H37Rv ; tested at: 12.5 µg/mL ; value: -3%
CC1(C)CC2=C(Sc3ccccc3N2)C(=O)C1C(=O)C(=O)Nc1cc(Cl)ccc1Cl ; measure: inhibition ; read by: BACTEC ; strain: H37Rv ; tested at: 12.5 µg/mL ; value: 13%
Cc1ccc(C)[nH]1 ; measure: MIC ; strain: 103471 ; value: 8 µg/mL
Cc1cc(C)c(C(=O)NN)[nH]1 ; measure: EC50 ; read by: BACTEC ; strain: H37Rv ; value: >6.25 µg/mL
Cc1ccc2[nH]c(O)c(N=NC(=S)Nc3ccccc3)c2c1 ; measure: EC90 ; read by: broth dilution / resazurin ; strain: H37Rv ; value: 1.433 µg/mL
Cc1ccc2c(c1)c(N=NC(=S)Nc1cccc(Br)c1)c(O)n2C ; measure: EC50 ; read by: broth dilution / resazurin ; strain: H37Rv ; value: 5.495 µg/mL

An empty or dashed field is not shown. MIC bound comes from a single tested concentration. ECn is the concentration giving n% inhibition of infection, replication or growth. MIC50, MIC90 and the like: level of inhibition, or share of isolates inhibited. Two numbers with a dash give a range or band. Percent inhibition refers to the dose given; in toxicity tests it is the harm to the cells. Fold resistance: result on the changed form divided by that on wild type.